1 compound from PubChem BioAssay AID720706 (Broad Institute, 2013) can be followed below.

The list shows a part of the results, in another mix than the full data. Active and inactive are the calls of the source.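 How the source made its calls: active means significant combined selectivity score with lowered wild-type GFP, culture density cut under 30%, mutant RFP and density less affected; inactive means any of these conditions unmet.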

This assay is described as follows: reduced GFP signal of wild-type E. coli, primary screen, bacterial rRNA inhibitor project, GFP/RFP fluorescence, OD600, single point (AID 720706). The following applies: E. coli WT GFP vs humanized-ribosome RFP mutants, 24 h, stronger effect = lower value, DMSO median 0, no signal -100.
Consider `CC(C)/C=N\N=C(\N)N[N+](=O)[O-]`, for which the GFP signal change (wild-type ribosome) is inactive: 3.74%.
